A mixed list of measured activities; the numbers were collected in NIAID ChemDB.

All rows: tests on isolated targets; agent: HIV-1; target: Reverse transcriptase; measure: inhibition

Lines come from different laboratories, so protocols vary. Percent inhibition refers to the dose given; in toxicity tests it is the harm to the cells. An empty or dashed field is not shown.

structure	mutations	method	tested at	value
Cc1cc(O)c2c(c1)C(=O)C=CC2=O	-	RT activity	50 µg/mL	98%
O=C1CSC(c2c(F)cccc2Cl)N1n1cnnc1	-	RT activity / ELISA / absorbance	10 µg/mL	19.2%
Cc1cc(O)c2c(c1Cl)C(=O)C=CC2=O	-	RT activity	50 µg/mL	56%
O=C(/C=C/c1ccc(O)c(O)c1)O[C@@H]1[C@H](O)C[C@@](O)(C(=O)O)C[C@H]1OC(=O)/C=C/c1ccc(O)c(O)c1	-	RT activity / absorbance	100 µg/mL	65%
O=C1CSC(c2c(Cl)ncnc2Cl)N1c1ncccn1	-	RT activity / ELISA / absorbance	10 µg/mL	29.78%
COc1c(O)cc2oc(-c3ccc(O)cc3)cc(=O)c2c1O	-	RT activity / absorbance	100 µg/mL	57.9%
O=C1CSC(c2c(Cl)cccc2Cl)N1n1cnnc1	-	RT activity / ELISA / absorbance	100 µg/mL	61.69%
Cc1cc(O)c2c(c1Br)C(=O)C=CC2=O	-	RT activity	100 µg/mL	70%
COC(=O)C1(O)C[C@@H](OC(=O)/C=C/c2ccc(O)c(O)c2)C(OC(=O)/C=C/c2ccc(O)c(O)c2)[C@H](OC(=O)/C=C/c2ccc(O)c(O)c2)C1	-	RT activity / absorbance	100 µg/mL	54.5%
O=C1CSC(c2c(Cl)ncnc2Cl)N1n1cnnc1	-	RT activity / ELISA / absorbance	100 µg/mL	72.15%
Cc1ccc2c(c1O)C(=O)C=CC2=O	-	RT activity	50 µg/mL	75%
CCc1c(Sc2ccccn2)n(COCc2ccccc2)c(=O)[nH]c1=O	RT-V106A	-	50 µM	60%
Cc1cc(O)c2c(c1F)C(=O)C=CC2=O	-	RT activity	50 µg/mL	85%
C1=Cc2cccnc2N(C2CC2)c2ncccc21	RT-K103N	nucleotide incorporation	1 µM	73%
O=C1CSC(c2c(Br)cncc2Br)N1n1cnnc1	-	RT activity / ELISA / absorbance	100 µg/mL	45.57%

Repeating the first 2 entries:

Cc1cc(O)c2c(c1)C(=O)C=CC2=O ; method: RT activity ; tested at: 50 µg/mL ; value: 98%
O=C1CSC(c2c(F)cccc2Cl)N1n1cnnc1 ; method: RT activity / ELISA / absorbance ; tested at: 10 µg/mL ; value: 19.2%